From patent publication US8592552B2 (priority 2007, dated 2013)

System: Vero cells
Experiment: Cellular structure integrity (microtubules, mitotic spindle) by confocal microscopy
Assay type: cell-based, African green monkey (Cercopithecus)
Conditions: tubulin, FIG. 12

Compound: CSCC[C@H](NC(=O)[C@@H](NC(=O)[C@H](CCC(N)=O)NC(=O)[C@H](CO)NC(=O)[C@H](C)NC(=O)[C@@H](NC(=O)[C@H](CC(N)=O)NC(=O)[C@H](CCC(N)=O)NC(=O)[C@@H](NC(=O)[C@@H](NC(=O)[C@@H](NC(=O)[C@@H](NC(=O)[C@H](CO)NC(=O)CNC(=O)[C@@H]1CCCN1C(=O)[C@H](CCC(=O)O)NC(=O)[C@H](C)NC(=O)[C@@H]1CCCN1C(=O)[C@H](Cc1c[nH]cn1)NC(=O)[C@H](CCCNC(=N)N)NC(=O)[C@H](CCCNC(=N)N)NC(=O)[C@H](CCCNC(=N)N)NC(=O)[C@H](CCCNC(=N)N)NC(=O)[C@H](CCCNC(=N)N)NC(=O)[C@H](CCCNC(=N)N)NC(=O)[C@H](CCCNC(=N)N)NC(=O)[C@@H](N)CCCNC(=N)N)[C@@H](C)O)C(C)C)[C@@H](C)O)[C@@H](C)O)[C@@H](C)O)[C@@H](C)O)C(=O)N[C@@H](CO)C(=O)O
- cells viability and proliferative capacity (mitotic spindle formation): not affected
